Results on 2 molecules are retold here after publication PMC7132624 (Biochemical and biophysical research communications, 2020).

The target of this assay is T1, influenza A/PR/8 NP protein (influenza A/PR/8, UniProt P03466 1-498).
T1 sequence: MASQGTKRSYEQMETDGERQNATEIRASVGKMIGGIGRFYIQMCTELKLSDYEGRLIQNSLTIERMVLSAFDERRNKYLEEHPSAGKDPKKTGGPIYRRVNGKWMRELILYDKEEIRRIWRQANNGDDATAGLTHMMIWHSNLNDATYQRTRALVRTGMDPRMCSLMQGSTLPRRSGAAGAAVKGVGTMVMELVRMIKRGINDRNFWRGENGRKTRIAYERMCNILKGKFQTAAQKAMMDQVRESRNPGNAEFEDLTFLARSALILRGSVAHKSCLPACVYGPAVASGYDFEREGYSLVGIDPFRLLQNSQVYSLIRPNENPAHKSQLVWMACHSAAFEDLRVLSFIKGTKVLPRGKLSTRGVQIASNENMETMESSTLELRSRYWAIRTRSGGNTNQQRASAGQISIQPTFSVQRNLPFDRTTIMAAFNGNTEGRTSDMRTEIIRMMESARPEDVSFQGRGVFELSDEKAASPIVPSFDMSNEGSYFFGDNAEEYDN
The assay can be described thus: pull-down.

As for MAENDVDNELLDYEDDEVETAAGGDGAEAPAKKDVKGS (domain or fragment, UniProt Q13838 1-38, looked up) [GST-tagged UAP56-NTE_(1-38) (a.a. 1-38)], the binding result is “binds”.

B1: GST-tagged UAP56-Core ([…]) (domain or fragment)
chain: not shown
For B1, the binding result is given as “binds”.
